Replication capacity of HIV-1 mutants, RT

Source: Al-Mawsawi et al. 2014 (doi:10.1186/s12977-014-0124-6), supplementary data.

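Random point mutant libraries of HIV-1 NL4-3, one for each of seven fragments, were passaged in CEM T lymphocytes. The RC index is the frequency of a change after passage round 2 divided by its frequency in the plasmid library.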

Protein: RT of HIV-1 NL4-3, numbered from its first residue.
Effects on overlapping genes or RNA elements are not listed.

A higher RC index is a better tolerated change; approximate classes are lethal up to 0.1, attenuated to 0.2, tolerated above.
A change reads original residue, position, new residue.

change	base	RC index
F61I	T2730A	0.0561
F61L	T2730C	0.0774
F61Y	T2731A	0.0324
F61S	T2731C	0.0795
F61L	T2732A	0.0172
A62P	G2733C	0.166
A62S	G2733T	0.175
A62D	C2734A	0.126
A62V	C2734T	0.421
I63T	T2737C	0.0341
I63M	A2738G	0.103
K64R	A2740G	0.158
K65R	A2743G	0.0583
K66R	A2746G	0.0937
K66N	A2747T	0.0260
D67Y	G2748T	0.106
D67E	C2750G	0.119
S68T	G2752C	0.0896
S68I	G2752T	0.0396
T69A	A2754G	0.0417
K70R	A2758G	0.0143
K70I	A2758T	0.0415
W71S	G2761C	0.170
W71C	G2762T	0.159
K73E	A2766G	0.0336
K73R	A2767G	0.0555
F77L	T2778C	0.0396
F77L	C2780A	0.134
R78I	G2782T	0.0454
L80V	C2787G	0.189
N81S	A2791G	0.0430
N81K	T2792A	0.0619
K82R	A2794G	0.0202
K82N	G2795T	0.0496
R83G	A2796G	0.164
T84N	C2800A	0.0299
Q85H	A2804T	0.0250
D86N	G2805A	0.664
F87C	T2809G	0.150
W88L	G2812T	0.351
W88C	G2813T	0.160
E89G	A2815G	0.0560
E89V	A2815T	0.0308
E89D	A2816T	0.0246
V90I	G2817A	0.0968
V90F	G2817T	0.0327
V90A	T2818C	0.134
L92I	T2823A	0.0323
L92S	T2824C	0.0991
I94L	A2829T	0.0186
I94T	T2830C	0.0261
H96Y	C2835T	0.0317
P97S	C2838T	0.193
P97H	C2839A	0.0619
A98S	G2841T	0.0886
G99R	G2844A	0.0501
L100F	A2849T	0.0362
K101R	A2851G	0.0525
K101I	A2851T	0.0203
Q102K	C2853A	0.0964
Q102H	G2855T	0.0794
K103E	A2856G	0.0436
K103R	A2857G	0.0537
K104N	A2861T	0.00655
S105P	T2862C	0.0251
T107A	A2868G	0.0292
T107S	A2868T	0.0259
V108I	G2871A	0.134
V108A	T2872C	0.0423
L109P	T2875C	0.0353
D110E	T2879A	0.0362
V111E	T2881A	0.0238
V111A	T2881C	0.0263
G112S	G2883A	0.0700
D113N	G2886A	0.114
D113E	T2888A	0.0586
A114T	G2889A	0.178
A114S	G2889T	0.0504
A114E	C2890A	0.0558
Y115D	T2892G	0.0886
F116Y	T2896A	0.0243
S117P	T2898C	0.0580
V118I	G2901A	0.0608

Nucleotide positions follow pNL4-3.
Clones carried about five changes per kilobase, which can drag down the index of neutral changes.
An index over 1, which the authors read as above wild type, was rare (1.9% of all changes in the genome).